Construct, isoform or probe ends are uncertain for at least one entry.

The subject of the first data set is His-QsvR (Vibrio parahaemolyticus). Put plainly: EMSA. The settings on record: EMSA: 10 mM Tris-HCl pH 7.5, 50 mM NaCl, 1 mM MgCl2, 0.5 mM EDTA, 0.5 mM DTT, 10 ul; recombinant protein; residues 1-267; protein details: 6xHis (pET28a); label: 5'-32P; probe letters rebuilt from the primers and the genome.
“CGAGCGAATTACTATTTGGATCAAAGGTAAACCTTTGAGCAAGTAGAAATTTGGTGCCGATGTTAGTCATTTAGTTCTTCTTAGATGGATGATGTTGTAATTATGGTGATTTATATCACAAAATTACGTTTGCGCATGGGAGATACGCGACGTTTTAGATGCTTTTAGGGGGGTAGGATAATTAAATTTTTCTAAAAAAACACCGTTTTTAGCAATATTGACCTTGAATTTACATTTGTCAGCCACATGTTAAATGACATCTTAGTGTGGTGATTTCATGGGGCTAAATCACAAAGTCGTCCCTGAAAAAGCCTGTTAGTTTAGATGTTATGGAGCACACATGAGCGAAACCGTATCTCAAAATAAAGAAACTCGTGGTTTTCAATCAGAAGTAAAACAACTACTTCATTTAATGATCCATTCTCTTTATTCCAATAAAGAGATCTTTTTGCGCGAGCTGATTTCTAACGCATCAGATGCATCAGACAAATTGCGTTTTCAGGCACTTTCGAATCCAGATTTATATGAAGGTAACGCAGATCTTGGCGTTAAGCTGTCATTTGATGAAAGTGCAAATACCTTAACGAT (double strand) [toxR promoter EMSA probe]”: the binding result was “binds”.

As to “GATTTCAGGCTTTTCCGTGTACTGTTCCATAATGTTTCTCATACTTTCATTAACTTAAGATTCTTAATTTCGTAGTTAATTATCAGCACTCAAGCTCATATCTAAGTGCTAGACAACAGAGTAAAGTTATTTACTACCTTTTTGAATTACTAATTTATTAAAAACAGAAACAAAAAAAGTGTTTCTCATAAAAGAAACACTTTTAACTAAGGCTATTTTTAAAAAAATATACGTATGCACTAAATTAGTTAGGTATTTTTTATAAAATCAAACCATCTCTATAGAGTGATCTGAAATATTTTCTTTTGCCCAAATCAGTGCTTGTACTCTGTTTTTTACATCAATCTTTTTAAAAATATTGTGAAGATGCGTTTTAACTGTATTTTCGCTTACAAATAACTGTTCGGCTATTTGTTGATTAGAGGCCCCCATAGATAAAAACGTAATGATCTGTTGTTCTCGCTTAGTCAGTATTGCTGGAAC (double strand) [cpsQ promoter EMSA probe]”, the binding result is “binds”.

“GTTTGTTTGCTCGGATTGTTTGTGGCAAACACATAATAACTATTAACTACCTATTATTACGTTTCTTCCAACATTCCTACGTGGTACTTGATGCAGCTTTTCGATTTCGAAGGGCTGCATTTTTATTCCCTCTCGTTCATTTCTATTCATTGTTTAATTGCAGATTATTTGACTGATACGCGCAAATTTGCGCCAAAGACATAGGCTGTGTTTTTTGGTCCGTTGGTTATTGATAGGTGGGGTAAATGTGTTTCGATGTTTGTTCTTAGTCTTATCAATTTGCTAAATACATACTCAAAGAGTGTGGTTTTAGTTGTTTTATAGTTTTTTATGTTTTTTTCAATTTGTTGATTTTAAATGATTAAATACCTAAGTGGCTAAAATTTAGTGATTAAATATCAATCTAGTTGCTAAACCCCAATCGATTAGTTGATAGTACGCTTCGAGCCGGAAGTATCCGGACGATAAATATAATAAAAATTAGGTTTCTATTCGTAAAAATGATTCGAATCCAGCCGCCGTCTTTTGTGCGAGATGGGATTCTATTCGTTATGAATTCATTGAAACAATTTGACGATTACAAAAGAGGCGCACTCAATGTTAGAGAAGAAAGATGCGATGAGCGCAATTGCTAGCTACCGTATGGAAAGCACTTTG (double strand) [calR promoter EMSA probe]”: the binding result is “binds”.

The next data set shares this test system. Kind of data set: DNase I footprinting. As to conditions: 5 mM CaCl2 and 10 mM MgCl2 solution added before digestion; footprinting: same binding buffer, room temperature, 30 min; recombinant protein; residues 1-267; protein details: 6xHis (pET28a); label: 5'-32P on one strand (coding or noncoding); probe letters rebuilt from the primers and the genome.
“ACATACTATTAAATCGCATCTATACAATATTTTTAGAAAGTTAGAAGTGAAAAATAGGACGCAAGCCACAAGTTGGGCAAAAAGAAACCTCTAGTACTAGGAATAACTGCATGTAATTAAAAGAAAACAATAGATAAAGTACTAAGTTTTATATTTATAATTAAAAGGTCAGTTAGAAATATCATCCCATATTCAAACTCATTCTTATCCACTTGGCTATTAGACTTCTCATGTCTGGAACGAATCTCATCAGACGTGGAATAAAAGGTCTATTCAATAAATAAGCCAGAGGGAAT (double strand) [mfpA footprinting probe]”: the binding result is on record as “binds”. As for “TACCTAACTAATTTAGTGCATACGTATATTTTTTTAAAAATAGCCTTAGTTAAAAGTGTTTCTTTTATGAGAAACACTTTTTTTGTTTCTGTTTTTAATAAATTAGTAATTCAAAAAGGTAGTAAATAACTTTACTCTGTTGTCTAGCACTTAGATATGAGCTTGAGTGCTGATAATTAACTACGAAATTAAGAATCTTAAGTTAATGAAAGTATGAGAAACATTATGGAACAGTACACGGAAAAGCCTGAAATC (double strand) [cpsQ footprinting probe]”, the binding result is on record as “binds”.

On to “TTTCAGGGACGACTTTGTGATTTAGCCCCATGAAATCACCACACTAAGATGTCATTTAACATGTGGCTGACAAATGTAAATTCAAGGTCAATATTGCTAAAAACGGTGTTTTTTTAGAAAAATTTAATTATCCTACCCCCCTAAAAGCATCTAAAACGTCGCGTATCTCCCATGCGCAAACGTAATTTTGTGATATAAATCACCATAATTACAACATCATCCATCTAAGAAGAACTAA (double strand) [toxR footprinting probe]”, for which the binding result is reported as “binds”.

The record behind these values is article PMC7923509.
